Measurements as given in article PMC5814837 (Pest Management Science, 2017).

System: Zymoseptoria tritici
Type: cell-based

Structure (SMILES)	RF in comparison with reference strain IPO323
Cn1cc(C(=O)Nc2ccc(F)cc2-c2ccc(Cl)c(Cl)c2)c(C(F)F)n1 [Bixafen, bixafen]	< 10
Cc1cc(OC(C)C)ccc1C(=O)C(C)(C)NC(=O)c1sccc1C [Isofetamid, N‐[1,1‐dimethyl‐2‐(4‐isopropoxy‐o‐tolyl)‐2‐oxoethyl]‐3‐methylthiophene‐2‐carboxamide]	> 174
